# From article PMC9610207 (Viruses, 2022)
# Biological target: human Syntenin PDZ1-2
# Format: binding
# Settings: pH 7.5
substance,measurement,value
E66-77: synthetic FITC-labeled peptide corresponding to the C-terminus of the SARS-CoV-2 E protein (NSSRVPDLLV; FITC-labeled),"KD, FITC-labeled SARS-CoV-2 C-terminal peptide binding to syntenin PDZ1-2",not determinable
